The values below come from paper PMC8443799, “Structural characterization of KKT4, an unconventional microtubule-binding kinetochore protein”.

The data set concerns the target T1, KKT4 BRCT domain (KKT4 463-645) (Trypanosoma brucei) (UniProt Q580Y8).
T1 sequence (looked up): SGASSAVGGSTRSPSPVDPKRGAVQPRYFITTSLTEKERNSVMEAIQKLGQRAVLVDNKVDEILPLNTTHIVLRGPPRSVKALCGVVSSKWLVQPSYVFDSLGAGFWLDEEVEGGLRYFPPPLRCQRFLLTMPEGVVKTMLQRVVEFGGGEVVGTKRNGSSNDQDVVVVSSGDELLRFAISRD
Nature of the data set: fluorescence anisotropy. The note with it: up to 1 uM protein, 1 nM DNA, failed to saturate the signal, legend says does not bind DNA, 25 mM HEPES pH 7.5, 50 mM NaCl, 0.5 mM TCEP, 30 min at room temperature, recombinant protein, residues 463-645, protein details: 6HIS removed by TEV, label: 5' 6-FAM. For orientation: In fluorescence polarisation assays a small probe gives low polarisation when free and higher when bound to something large.

Weaker means in comparison with the reference protein, sequence or condition of that experiment. Protein sequences can lack the tags named with them.

Turning to “CAATATGTAAGGTGTTTTGGTGTAAAACACGCATTCTTGCATAACATGCA (double strand) [BA3098 50-bp CIR147 DNA probe]”, the binding result is reported as “binds more weakly”.
